According to publication PMC5959072, “Biochemical characterization of RecBCD enzyme from an Antarctic Pseudomonas species and identification of its cognate Chi (χ) sequence” (PLoS ONE, 2018):

test system: Nc1ncnc2c1ncn2[C@@H]1O[C@H](COP(=O)(O)OP(=O)(O)OP(=O)(O)O)[C@@H](O)[C@H]1O; assay: purified protein; settings: 22 °C, pH 7.5, 1 mM Mg acetate, NdeI-linearized pBR322 dsDNA, ATP sites in RecB and RecD

“RecBCD^Ps (RecBCD enzyme of Pseudomonas syringae Lz4W) (Pseudomonas syringae; Q8L1Z1:K229Q)” was tested. Which Km did it give?
The Km was 49.4 ± 5.8 µM.

What about the kcat of the same substance?
Its kcat is 24 s⁻¹.

With “RecBCD^Ps (RecBCD enzyme of Pseudomonas syringae Lz4W) (Pseudomonas syringae; Q8L1Z2:D1118A)” as the substance, how does the Km read?
Its Km is 59.5 ± 8.5 µM.

What about the kcat of the same substance?
Its kcat is 221 s⁻¹.

What does the source list for “RecBCD^Ps (RecBCD enzyme of Pseudomonas syringae Lz4W) (Pseudomonas syringae; Q8L1Z2:K28Q)”?
Km: 58.3 ± 11.0 µM; kcat: 26 s⁻¹
